Results of unrelated studies side by side (data: NIAID ChemDB).

All rows: toxicity to cultured cells; cells: MT-4; endpoint: CC50

Conditions beyond the fields shown may differ between rows. CCn: concentration that lowers growth or viability of the cells by n%. An empty or dashed field is not shown.

structure | read by | result
O=C(/C=C/c1cccn1Cc1ccccc1Cl)CC(=O)C(=O)O | resazurin | >50 µM
CCOC(=O)c1ccc(NC(=O)COc2cccnc2-c2cccc3ccccc23)cc1 | MTT / absorbance | 49.5 µM
CCc1c(Sc2cc(C)cc(C)c2)n(C/C=C/c2cccs2)c(=O)[nH]c1=O | - | >1 µM
Cc1cn([C@H]2C[C@H](N=[N+]=[N-])[C@@H](CO)O2)c(=O)[nH]c1=O | MTT | 210 µM
Nc1ncnc2c1ncn2[C@H]1CO[C@@H](CCP(=O)(O)O)O1 | - | >100 µg/mL
O=C(NCCCCCCN1CCCC2=C[C@@H]3C[C@@H](CN4CCCC[C@H]34)[C@@H]21)c1ccc(C(F)(F)F)cc1 | luminescence | >20 µM
COc1ccc2[nH]c(=S)n(Cc3c(F)cccc3F)c2c1 | - | 1.71 µg/mL
CCOC(=O)CNc1nc(Nc2cccc(C)c2)nc(Oc2cc(=O)oc3ccccc23)n1 | MTT | 65.28 µg/mL
CCc1c(Sc2ccccc2)n(C/C=C/c2cc3ccccc3o2)c(=O)[nH]c1=O | - | >1 µM
O=C(NCCCCCCN1CCCC2=C[C@@H]3C[C@@H](CN4CCCC[C@H]34)[C@@H]21)c1c(F)cccc1F | luminescence | >20 µM
COC(=O)c1ccc(NC(=O)COc2cccnc2-c2cccc3ccccc23)c(Br)c1 | MTT / absorbance | 21.6 µM
CN1CCn2c(nc(C(=O)NCc3ccc(F)cc3)c(O)c2=O)C(N(CC2CCCCC2)C(=O)C(=O)N(C)C)C1 | microscopy | >1 µM
CCOC(=O)c1ccc(NC(=O)COc2cccnc2-c2cccc3ccccc23)c(Br)c1 | MTT / absorbance | 149 µM
Cc1c(Sc2ccccc2)n(COCCNc2ccccc2)c(=O)[nH]c1=O | - | >1 µM
O=c1cc(Sc2ccccc2)n(COCCO)c(=O)[nH]1 | - | >500 µM
CCOC(=O)CNc1nc(NC(=O)Nc2ccc(OCC)cc2)nc(Oc2cc(=O)oc3ccccc23)n1 | MTT | >125 µg/mL
O=C(NCCCCN1CCCC2=C[C@@H]3C[C@@H](CN4CCCC[C@H]34)[C@@H]21)c1ccc(OC(F)(F)F)cc1 | luminescence | >20 µM
CC(=O)N1Cc2ccccc2-c2c(C)c(-c3ccc(C)cc3)c([C@H](OC(C)(C)C)C(=O)O)c(C)c21 | MTT | 21 µM
CCOC(=O)CNc1nc(NC(=O)Nc2ccccc2C)nc(Oc2cc(=O)oc3ccccc23)n1 | MTT | 75.53 µg/mL
Cc1ccc(-c2c(C)c3c(c(C)c2[C@H](OC(C)(C)C)C(=O)O)N(S(C)(=O)=O)Cc2cccc(F)c2-3)c(O)c1 | MTT | >50 µM
Nc1ccn([C@H]2CC[C@@H](CO)O2)c(=O)n1 | MTT | 2451 µM
COc1ccc(CCNc2nc(NC(=O)Nc3ccccc3Cl)nc(Oc3cc(=O)oc4ccccc34)n2)cc1OC | MTT | 51.15 µg/mL
CCOC(=O)C(=O)CC(=O)/C=C/c1cccn1Cc1ccc(C)cc1C | resazurin | 15.4 µM
Cc1ccnc2c1NC(=O)c1cccnc1N2C1CC1 | MTT / absorbance | >15 µM
Cc1ccc(Cn2cccc2/C=C/C(=O)CC(=O)C(=O)O)c(C)c1 | resazurin | 25.5 µM
O=C(COc1cccnc1-c1cccc2ccccc12)Nc1ccccc1 | MTT / absorbance | 20.2 µM
C[C@@]1(CO)CC[C@H](c2c[nH]c3c(N)ncnc23)C1 | - | >100 µM
Cc1ccc(-c2ncccc2OCC(=O)Nc2ccc(S(N)(=O)=O)cc2)cc1 | MTT / absorbance | ≤249 µM
CCOC(=O)C(=O)CC(=O)/C=C/c1cc(-c2ccccc2)cn1Cc1ccc(F)cc1 | resazurin | 26.9 µM
CC(=O)c1ccc(NC(=O)COc2cccnc2-c2cccc3ccccc23)cc1 | MTT / absorbance | 8.23 µM
Nc1ncnc2c1ncn2[C@H]1CO[C@@H](CCP(=O)(O)O)O1 | - | >100 µg/mL
COc1ccc(CCNc2nc(NC(=S)Nc3cccc(Cl)c3)nc(Oc3cc(=O)oc4ccccc34)n2)cc1OC | MTT | 16.78 µg/mL
CC(C)(C)c1ccc(-c2ncccc2OCC(=O)Nc2ccc(C(N)=O)cc2)cc1 | MTT / absorbance | 197 µM
Cc1ccc(S(=O)(=O)N2CCn3c(nc(C(=O)NCc4ccc(F)cc4)c(O)c3=O)C2)cc1 | microscopy | >1 µM
Cc1ccc(-c2ncccc2OCC(=O)Nc2ccc(C(N)=O)cc2)cc1 | MTT / absorbance | 105 µM
O=C(NCCCCCN1CCCC2=C[C@@H]3C[C@@H](CN4CCCC[C@H]34)[C@@H]21)c1ccc(OC(F)(F)F)cc1 | luminescence | 12.87 µM
CN(C)CC1c2nc(C(=O)NCc3ccc(F)cc3)c(O)c(=O)n2CCN1C | microscopy | >10 µM
Fc1cccc(F)c1Cn1c(=S)[nH]c2ccc(Cl)cc21 | - | 2.33 µg/mL
Nc1ncnc2c1ncn2C12C=C[C@@H](CO)[C@@H]1C2 | MTT | >100 µg/mL
Fc1cccc(F)c1CCn1c(=S)[nH]c2ccc(Cl)nc21 | - | >25 µg/mL
CC(=O)N(C)C1CN(C)CCn2c1nc(C(=O)NCc1ccc(F)cc1)c(O)c2=O | microscopy | >1 µM
CCOC(=O)C(=O)CC(=O)/C=C/c1cccn1Cc1ccccc1Cl | resazurin | >50 µM
CCCOCn1c(Sc2ccccc2)c(C)c(=O)[nH]c1=O | - | 140 µM
CCOC(=O)CNc1nc(Nc2ccccc2C)nc(Oc2cc(=O)oc3ccccc23)n1 | MTT | 23.12 µg/mL
C[C@@H]1CO[C@@]23CCCC[C@@H]2n2cc(C(=O)NCc4ccc(F)c(Cl)c4F)c(=O)c(O)c2C(=O)N13 | luminescence | 4.6 µM
CC1c2nc(C(=O)NCc3ccc(F)cc3)c(O)c(=O)n2CCN1Cc1cocn1 | microscopy | >1 µM
COc1cccc2c1[nH]c(=S)n2Cc1c(F)cccc1F | - | 0.44 µg/mL
O=C(NCc1ccc(F)c(Cl)c1F)c1cn2c(c(O)c1=O)C(=O)N1CCCO[C@]13C1CC1C[C@H]23 | luminescence | 20.2 µM
O=C(NCCN1CCCC2=C[C@@H]3C[C@@H](CN4CCCC[C@H]34)[C@@H]21)c1cccc(F)c1 | luminescence | >80 µM
CCOC(=O)CNc1nc(Nc2ccc(F)cc2)nc(Oc2cc(=O)oc3ccccc23)n1 | MTT | 67.6 µg/mL

The last 4 rows once more:

structure	read by	result
COc1cccc2c1[nH]c(=S)n2Cc1c(F)cccc1F	-	0.44 µg/mL
O=C(NCc1ccc(F)c(Cl)c1F)c1cn2c(c(O)c1=O)C(=O)N1CCCO[C@]13C1CC1C[C@H]23	luminescence	20.2 µM
O=C(NCCN1CCCC2=C[C@@H]3C[C@@H](CN4CCCC[C@H]34)[C@@H]21)c1cccc(F)c1	luminescence	>80 µM
CCOC(=O)CNc1nc(Nc2ccc(F)cc2)nc(Oc2cc(=O)oc3ccccc23)n1	MTT	67.6 µg/mL